According to patent publication US6727076B2 (priority 1995, dated 2004):

Legend:
Test in all cases: Carbon source utilization in Biolog ES MicroPlate
Type in all cases: cell-based
Details in all cases: PPS inoculum, 35° C., 24 hours
[1] = system: E. coli strain 13673 (O157)
[2] = system: E. coli strain 13675 (O157)
[3] = system: E. coli strain 13671 (O157:H? gur+)
[4] = system: E. coli strain 11547 (O157:H7)

| Substance | carbon source utilization [1] | carbon source utilization [2] | carbon source utilization [3] | carbon source utilization [4] |
| --- | --- | --- | --- | --- |
| Acetoactetic acid | − | − | − | − |
| M-inositol | − | − | − | − |
| M-tartaric acid | − | − | + | w |
| Tween-40 | w | w | w | w |
| α-hydroxy-glutaric acid γ-lactone | − | w | − | w |
